The test addresses EF CC activity (Bacillus anthracis, UniProt P40136). The format is biochemical.

What is called Ki is the equilibrium dissociation constant of an inhibitor or competing ligand from its target. Take MANT-ATP: the “fold lower potency than MANT-CTP in inhibition of EF CC activity” value is recorded as “about 7 fold”. In addition, the Ki (read-out: Ki EF CC activity) was 0.58 ± 0.03 µM.

For the origin of these results see PMC2951761 (Biochemistry, 2010).
